This is a selection; strong and weak results do not stand in their true shares. Results with a measured potency or affinity are listed apart. The source made the active and inactive calls.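 How the source made its calls: active means inhibition over 29.93%, a cutoff 3 SD above the screen mean, later confirmed by dose response; inconclusive means inhibition over 29.93% but no dose response follow-up; inactive means inhibition at most 29.93% or unconfirmed.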
Assay: inhibitors of PhoP regulon expression, primary screen, Salmonella Typhimurium, GFP reporter (AID 1863);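 further: 0% = low Mg2+ inducing control and 100% = high Mg2+ repressing control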
Settings: S. Typhimurium PhoP-regulated promoter GFP reporter, 4 h; at 50 µM; active compounds read high

Row | SMILES | inhibition
1 | COc1ccc(CN(CCCl)CCCl)cc1Cl | inactive: -4.96%
2 | CN(C)c1cccc(C(=O)NCC2(N3CCCCC3)CCCCC2)c1 | inactive: -0.63%
3 | CC(C)c1ccc(NC2CCN(C(=O)OC(C)(C)C)CC2)cc1 | inactive: -3.01%
4 | COc1cc(OC)c(C(=O)NCC2(N(C)C)CCCCC2)cc1OC | inactive: -3.34%
5 | CCCOc1ccc(C(=O)NCC2(N(C)C)CCCCC2)cc1OC | inactive: 5.09%
6 | O=C(NCC1(N2CCCCC2)CCCCC1)c1ccc(OC(F)F)cc1 | inactive: -9.27%
7 | O=C(NCC1(N2CCCCC2)CCCCC1)c1cccc([N+](=O)[O-])c1 | inactive: -2.72%
8 | CCN1CCC(Nc2ccc(Cl)cc2)CC1 | inactive: 1.76%
9 | N#CC1(Nc2ccccc2)CCN(CCc2ccccc2)CC1 | inactive: 2.89%
10 | O=C(NCC1(N2CCCCC2)CCCCC1)c1cccc(C(F)(F)F)c1 | inactive: -1.83%
11 | COc1ccc(NC2CCN(C(=O)OC(C)(C)C)CC2)cc1 | inactive: -7.37%
12 | CN1CCN(CCOC(=O)C(O)(c2ccccc2)c2ccccc2)CC1 | inactive: -26.3%
13 | O=C(NCC1(N2CCOCC2)CCCCC1)c1cc(=O)[nH]c2ccccc12 | inactive: 22.3%
14 | COc1cc(C(=O)NCC2(N3CCCCC3)CCCCC2)ccc1OC(F)F | inactive: 0.24%
15 | CCOc1ccc(C)cc1CN(CCCl)CCCl | inactive: -13.6%
16 | O=C(NCC1(N2CCCCC2)CCCCC1)c1ccc(F)cc1 | inactive: -0.4%
17 | CCOC(=O)N1CCC(Nc2ccc(F)cc2)CC1 | inactive: 10.9%
18 | COc1ccc(NC2CCN(CCc3ccccc3)CC2)c(OC)c1 | inactive: 4.63%
19 | CCOC(=O)N1CCC(Nc2cccc(C)c2)CC1 | inactive: 8.01%
20 | COc1cc(C(=O)NCC2(N(C)C)CCCCC2)ccc1OC(F)F | inactive: 5.46%

Row | SMILES | inhibition
21 | Cc1ccc(OCC(C)C)c(CN(CCCl)CCCl)c1 | inactive: -4.22%
22 | O=C(NCC1(N2CCCCC2)CCCCC1)c1ccc(=O)[nH]c1 | inactive: 8.1%
23 | O=C(NCC1(N2CCCCC2)CCCCC1)c1cccs1 | inactive: -6.94%
24 | COc1ccc(C(=O)NCC2(N3CCCCC3)CCCCC2)cc1 | inactive: 1.6%
25 | COc1ccc(C(=O)NCC2(N3CCCCC3)CCCCC2)c(OC)c1OC | inactive: -1.51%
26 | CC(C)(C)OC(=O)N1CCC(N(C(=O)c2ccccc2)c2ccc(F)cc2)CC1 | inactive: -6.9%
27 | CSc1ccccc1C(=O)NCC1(N2CCCCC2)CCCCC1 | inactive: -5.26%
28 | O=C(NCC1(N2CCOCC2)CCCCC1)c1cc2ccccc2o1 | inactive: -2.23%
29 | O=C(NCC1(N2CCCCC2)CCCCC1)c1ccc(Cl)nc1 | inactive: 2.09%
30 | Cc1cc(C)cc(N(C(=O)c2ccccc2)C2CCN(C(=O)OC(C)(C)C)CC2)c1 | inactive: 11.5%
31 | CCOC(=O)N1CCC(Nc2ccc(OC)cc2)CC1 | inactive: -3.89%
32 | N#CC1(Nc2ccccc2)CCN(Cc2ccccc2)CC1 | inactive: -2.98%
33 | O=C(OC1CN2CCC1CC2)C1c2ccccc2Oc2ccccc21 (stereo not drawn) | inactive: 6.58%
34 | CCOc1ncccc1C(=O)NCC1(N2CCOCC2)CCCCC1 | inactive: -1.65%
35 | CN1CCC(Nc2ccc(F)c(Cl)c2)CC1 | inactive: -7.34%
36 | CCCOc1ccc(C(=O)NCC2(N(C)C)CCCCC2)cc1 | inactive: -2.31%
37 | CC(C)(C)OC(=O)N1CCC(Nc2ccccc2)CC1 | inactive: 1.61%
38 | O=C(O)C1(Nc2ccccc2)CCN(Cc2ccccc2)CC1 | inactive: -4.96%
39 | CCC(CO)(C(=O)OC1CN2CCC1CC2)c1ccccc1 (stereo not drawn) | inactive: -4.03%
40 | COc1cccc(C(=O)N(c2cc(C)cc(C)c2)C2CCN(C(=O)OC(C)(C)C)CC2)c1 | inactive: -4.27%

Row | SMILES | inhibition
41 | COc1cc(OC)cc(C(=O)NCC2(N3CCOCC3)CCCCC2)c1 | inactive: 5.31%
42 | CCCOc1ccc(C)cc1CN(CCCl)CCCl | inactive: -9.5%
43 | CN1CCC(Nc2ccc(Cl)cc2)CC1 | inactive: -6.01%
44 | COc1cc(OC)cc(C(=O)NCC2(N3CCCCC3)CCCCC2)c1 | inactive: 3.45%
45 | Cc1ccc(C(=O)NCC2(N3CCCCC3)CCCCC2)o1 | inactive: 8.39%
46 | Fc1ccccc1NC1CCN(Cc2ccccc2)CC1 | inactive: 7.46%
47 | CCN1CCC(Nc2cccc(F)c2)CC1 | inactive: 11.2%
48 | CN(C)c1ccc(C(=O)NCC2(N3CCCCC3)CCCCC2)cc1 | inactive: -0.54%
49 | CC(C)(C)OC(=O)N1CCC(N(C(=O)c2ccccc2)c2ccc(Cl)cc2)CC1 | inactive: 10.9%
50 | N#Cc1ccc(C(=O)NCC2(N3CCCCC3)CCCCC2)cc1 | inactive: 6.81%
51 | c1ccc(CN2CCC(Nc3ccccc3)CC2)cc1 | inactive: 13.3%
52 | CCCN1CCC(Nc2cc(OC)cc(OC)c2)CC1 | inactive: -1.54%
53 | CN(C)C1(CNC(=O)c2cccc(C#N)c2)CCCCC1 | inactive: -1.29%
54 | COc1ccc(C(=O)NCC2(N3CCOCC3)CCCCC2)cc1OC | inactive: 2.33%
55 | N/C(=N\O)c1c(N)no[n+]1[O-] | inactive: 3.91%
56 | CCOC(=O)N1CCC(Nc2ccc(C)cc2)CC1 | inactive: -3.94%
57 | CCc1cc(C(=O)NCC2(N3CCCCC3)CCCCC2)sc1C | inactive: -4.19%
58 | O=C(OC1CN2CCC1CC2)C1c2ccccc2C=Cc2ccccc21 (stereo not drawn) | inactive: 12.7%
